Results of unrelated studies side by side (data: NIAID ChemDB).

Common to all: host cell toxicity; endpoint: CC50

Rows are shuffled and stem from different studies.

| structure | cell line | result |
|---|---|---|
| CC(C)(C)C(=O)OCOP(=O)(COCCn1cnc2c(N)ncnc21)OCOC(=O)C(C)(C)C | LLC-MK2 | >100 µg/mL |
| CCn1c(-c2ccsc2)cc(=O)c2cc(C(C)C)ccc21 | HeLa S3 | >20 µg/mL |
| CSc1noc(-c2ccc(OCCCc3ccccc3)cc2)c1C#N | HEP-2 | >25 µM |
| Nc1nc(=O)n([C@@H]2O[C@H](CO)[C@@H](O)[C@@H]2F)cc1I | VERO | >1000 µM |
| O=c1c(O)c(-c2ccc(Cl)cc2)oc2ccccc12 | HeLa | 1.49 µM |
| O=S(=O)(O)c1c2ccccc2c(-c2c3nc(c(-c4c5ccccc5c(S(=O)(=O)O)c5ccccc45)c4ccc([nH]4)c(-c4c5ccccc5c(S(=O)(=O)O)c5ccccc45)c4nc(c(-c5c6ccccc6c(S(=O)(=O)O)c6ccccc56)c5ccc2[nH]5)C=C4)C=C3)c2ccccc12 | CV-1 | 50 µg/mL |
| COc1cc(/C=C/C(=O)Oc2c(-c3ccc(Cl)cc3)oc3ccccc3c2=O)ccc1OC(C)=O | HeLa | 1.36 µM |
| CS/C(N)=N\N=C\c1ccc(Cl)c(Cl)c1 | Chorioallantoic membrane | 707 µg/mL |
| CO[C@H](CO)[C@@H](O)CCn1cnc2c(N)ncnc21 | HeLa | >400 µg/mL |
| [N-]=C=Nc1nncs1 | CEF | >32 µg/mL |
| CO[C@H](CO)[C@@H](O)CCn1ccc(N)nc1=O | HeLa | >400 µg/mL |
| Cc1cc(C)nc(NS(=O)(=O)c2ccc(N=C3C(=O)N(C(=O)c4ccccc4)c4ccccc43)cc2)n1 | HFF | >300 µM |
| CSc1nsc(-c2ccc(OCCCOc3ccc([N+](=O)[O-])cc3)cc2)c1C#N | HEP-2/L-929/VERO | 0.5 µM |
| Cn1c(O)c(N=NC(N)=S)c2ccccc21 | LLC-MK2 | >100 µg/mL |
| CSc1nsc(-c2ccc(OCc3ccccc3)cc2)c1C#N | HEP-2 | >50 µM |
| Cn1cc(C(=O)NCc2ccc(Cl)cc2)c(=O)c2cc(CN3CCOCC3)ccc21 | HFF | >100 µM |
| Cc1cn([C@H]2C[C@H](O)[C@]3(CO)C[C@H]23)c(=O)[nH]c1=O | HFF | >100 µg/mL |
| CC(=O)c1c(-c2ccc(Cl)cc2)oc2ccccc2c1=O | HeLa | 4.57 µM |
| CCCCCCCCCCCCCCCCOCCCOP(=O)(O)COCCn1cnc2c(=O)[nH]c(N)nc21 | HFF | >102 µM |
| C[C@H](NC(=O)OCc1ccccc1)C(=O)NC(CCC(=O)N(C)C)C(=O)CF | VERO | >100 µM |
| CSc1nsc(-c2ccc(OCCCCOc3ccc([N+](=O)[O-])cc3)cc2)c1C#N | HEP-2/L-929/VERO | 0.5 µM |
| O=C(/C=C/c1ccc(O)c(O)c1)Oc1c(-c2ccc(Cl)cc2)oc2ccccc2c1=O | HeLa | 0.91 µM |
| COC(OC)c1cn([C@H]2C[C@H](O)[C@@H](CO)O2)c(=O)[nH]c1=O | HFF | >300 µM |
| CSc1nsc(-c2ccc(OCCCCOc3ccc(C#N)cc3)cc2)c1C#N | HEP-2/L-929/VERO | 2 µM |
| N=c1c2ncn([C@@H]3O[C@H](CO)[C@@H](O)[C@H]3O)c2ncn1OCc1cc(F)cc(F)c1 | LLC-MK2 | >100 µg/mL |
| Nc1ncnc2c1nc(Br)n2[C@@H]1O[C@H](CO)[C@@H](O)[C@H]1O | C1271 | 68 µM |
| Nc1ncnc2c1ncn2[C@@H]1CC[C@@H](O)[C@H]1O | L929 | 73 µM |
| C[C@]1(CO)O[C@@H](n2ccc(N)nc2=O)[C@H](O)[C@@H]1O | HepG2.2.15 | >100 µM |
| O=c1[nH]c(=O)n([C@H]2C[C@H](O)[C@@H](CO)O2)cc1I | VERO | >1000 µM |
| N=C(N)CCNC(=O)c1c[nH]c(NC(=O)c2c[nH]c(NC(=O)CC(=O)Nc3c[nH]c(C(=O)Nc4c[nH]c(C(=O)NCCC(=N)N)c4)c3)c2)c1 | PRK | ≥10 µg/mL |
| CSc1nsc(-c2ccc(OCc3ccccc3)cc2)c1C#N | HEP-2/L-929/VERO | >50 µM |
| Nc1nc(=O)n([C@@H]2C=C(CO)[C@@H](O)[C@H]2O)cc1F | MK2 | >100 µg/mL |
| Cc1cn(CC[C@H](O)CCO)c(=O)[nH]c1=O | HeLa | >400 µg/mL |
| CS\C(N)=N/N=C(C)/C=C/c1ccc(Cl)cc1 | Chorioallantoic membrane | 710 µg/mL |
| Cc1cc(C)nc(NS(=O)(=O)c2ccc(N=C3C(=O)Nc4ccc(F)cc43)cc2)n1 | HFF | 239 µM |
| CN(C)C(=O)CCC(NC(=O)CNC(=O)OCc1ccccc1)C(=O)CF | VERO | >100 µM |
| Nc1ncnc2c1ncn2[C@@H]1O[C@H](CCO)[C@@H](O)[C@H]1O | VERO 76 | >100 µg/mL |
| CCn1c2c(c(=O)c3cc(C(C)C)ccc31)Cc1ccccc1-2 | HeLa S3 | >4 µg/mL |
| O=c1c(O)c(-c2ccc(Cl)c(Cl)c2)oc2ccccc12 | HeLa | 3.52 µM |
| N#Cc1c(Cl)nsc1Cl | HEP-2 | 4 µM |
| COc1ccc2cc1Oc1ccc(cc1)CC1c3cc(c(OC)cc3CCN1C)Oc1c(OC)c(OC)c(OC)c3c1C(C2)N(C)CC3 | CEF | 72 µM |
| Nc1nc2c(ncn2[C@@H]2O[C@H](CO)[C@@H](O)[C@@H]2O)c(=O)[nH]1 | C1271 | 135 µM |
| CCn1c(-c2ccccc2)cc(=O)c2c(C)c(OCC(C)C)ccc21 | HeLa S3 | >4 µg/mL |
| C#Cc1nc(Cl)c2ncn([C@@H]3O[C@H](CO)[C@@H](O)[C@H]3O)c2n1 | HFF | 3 µg/mL |
| CSc1noc(-c2ccc(OCCOc3ccc(Br)cc3)cc2)c1C#N | HEP-2 | >25 µM |
| Nc1nccc2c1ncn2[C@@H]1C=C(CO)[C@@H](O)[C@H]1O | LLC-MK2 | >100 µg/mL |
| CC(=O)N1C(=O)C(=Nc2ccc(S(=O)(=O)Nc3nc(C)cc(C)n3)cc2)c2cc(Cl)ccc21 | HFF | >300 µM |
| Nc1ccn(CC[C@H](O)CCO)c(=O)n1 | HeLa | >400 µg/mL |
| CSc1noc(-c2ccc(OCCOc3ccccc3)cc2)c1C#N | HEP-2 | >25 µM |
| Nc1nc(=O)n([C@@H]2O[C@H](CO)[C@@H](O)[C@@H]2O)cc1F | VERO | 0.6 µM |
| NC12CC3CC(CC(C3)C1)C2 | Chorioallantoic membrane | 1000 µg/mL |

CCn: concentration that lowers growth or viability of the cells by n%.